Anti-infective test results gathered from many reports (values: NIAID ChemDB through PubChem).

All rows: tests in culture; organism: Mycobacterium avium complex; read-out: MIC50

MIC50, MIC90 and the like: level of inhibition, or share of isolates inhibited.

{"compound": "CCCCNc1nc2c(s1)c1c(O)c3c(O)c(C)c4c(c32)C(=O)[C@@](C)(O/C=C/[C@H](OC)[C@@H](C)[C@@H](OC(C)=O)[C@H](C)[C@H](O)[C@H](C)[C@@H](O)[C@@H](C)/C=C/C=C(/C)C(=O)N1)O4", "strain or isolate": "20 strains", "result": "8 µg/mL"}
{"compound": "CC(=O)NC[C@H]1CN(c2ccc(N3CCN(Cc4ccc([N+](=O)[O-])s4)CC3)c(F)c2)C(=O)O1", "strain or isolate": "31 isolates", "result": "0.25 µg/mL"}
{"compound": "O=C(O)c1cn(N2CCOCC2)c2cc(NC3CC3)c([N+](=O)[O-])cc2c1=O", "result": "2.3 µM"}
{"compound": "O[C@@H](c1cc2ccc(C(F)(F)F)cc2c2cc(C(F)(F)F)ccc12)[C@H]1CCCCN1", "strain or isolate": "24 clinical isolates", "result": "4 µg/mL"}
{"compound": "NCC[C@H](O)C(=O)N[C@@H]1C[C@H](N)[C@@H](O[C@H]2O[C@H](CN)[C@@H](O)[C@H](O)[C@H]2O)[C@H](O)[C@H]1O[C@H]1O[C@H](CO)[C@@H](O)[C@H](N)[C@H]1O", "strain or isolate": "25 isolates", "result": "16 µg/mL"}
{"compound": "C[C@@H]1CN(c2c(F)c(N)c3c(=O)c(C(=O)O)cn(C4CC4)c3c2F)C[C@H](C)N1", "result": "1.56 µg/mL"}
{"compound": "CC[C@H]1OC(=O)C[C@@H](O)[C@H](C)[C@@H](O[C@@H]2O[C@H](C)[C@H](O[C@H]3C[C@@](C)(O)[C@@H](O)[C@H](C)O3)[C@H](N(C)C)[C@H]2O)[C@@H](CCOc2ccccc2)C[C@@H](C)C(=O)/C=C/C(C)=C/[C@@H]1COC1O[C@H](C)[C@@H](O)[C@@H](OC)[C@H]1OC", "strain or isolate": "28 strains", "result": "≥64 µg/mL"}
{"compound": "CO[C@H]1/C=C/O[C@@]2(C)Oc3c(C)c(O)c4c(O)c(c5c(c4c3C2=O)NC2(CCN(CC(C)C)CC2)N=5)=NC(=O)/C(C)=C\\C=C\\[C@H](C)[C@H](O)[C@@H](C)[C@@H](O)[C@@H](C)[C@H](OC(C)=O)[C@@H]1C", "strain or isolate": "211 strains", "result": "0.35 µg/mL"}
{"compound": "CC(C)(C)n1cc(C(=O)O)c(=O)c2cc([N+](=O)[O-])c(N3CCOCC3)cc21", "result": "13.5 µM"}
{"compound": "CC[C@H]1OC(=O)[C@H](C)C(=O)[C@H](C)[C@@H](O[C@@H]2O[C@H](C)C[C@H](N(C)C)[C@H]2O)[C@](C)(OC)C[C@@H](C)C(=O)[C@H](C)[C@H]2N(CCCCc3ccccc3)C(=O)O[C@]12C", "strain or isolate": "24 strains (HIV+)", "result": "9 µg/mL"}
{"compound": "CC1COc2c(N3CCN(C)CC3)c(F)cc3c(=O)c(C(=O)O)cn1c23", "strain or isolate": "89 isolates", "result": "16 µg/mL"}
{"compound": "O=C(O)c1cn(C2CCCC2)c2cc(NC3CCCC3)c([N+](=O)[O-])cc2c1=O", "result": "81 µM"}
{"compound": "NC[C@@H]1O[C@H](O[C@H]2[C@@H](O)[C@H](O[C@@H]3[C@@H](O)[C@H](N)C[C@H](N)[C@H]3O[C@H]3O[C@H](CN)[C@@H](O)[C@H](O)[C@H]3N)O[C@@H]2CO)[C@H](N)[C@@H](O)[C@@H]1O", "strain or isolate": "25 isolates", "result": "32 µg/mL"}
{"compound": "CN1CCN(CCCN=c2cc3n(-c4ccc(Cl)cc4)c4ccccc4nc-3cc2Nc2ccccc2)CC1", "strain or isolate": "10 strains (HIV+)", "result": "0.45 µg/mL"}
{"compound": "O=C(NCCCl)N1CCC(CN=c2cc3n(-c4ccc(Cl)cc4)c4ccccc4nc-3cc2Nc2ccc(Cl)cc2)CC1", "strain or isolate": "5 strains", "result": "1 µg/mL"}
{"compound": "C[C@@H]1CN(c2c(F)c(N)c3c(=O)c(C(=O)O)cn(C4CC4)c3c2F)C[C@H](C)N1", "strain or isolate": "18 strains", "result": "1.56 µg/mL"}
{"compound": "O=C(O)c1cn(C2CCCC2)c2cc(NC3CCCC3)c(F)cc2c1=O", "result": ">200 µM"}
{"compound": "CO[C@H]1/C=C/O[C@@]2(C)Oc3c(C)c(O)c4c(=O)c(c5oc6cc(N7CCN(CC(C)C)CC7)cc(=O)c6nc5c4c3=C2O)NC(=O)/C(C)=C\\C=C\\[C@H](C)[C@H](O)[C@@H](C)[C@@H](O)[C@@H](C)[C@H](OC(C)=O)[C@@H]1C", "result": "0.12 µg/mL"}
{"compound": "CC[C@H]1OC(=O)[C@H](C)[C@@H](O[C@H]2C[C@@](C)(OC)[C@@H](O)[C@H](C)O2)[C@H](C)[C@@H](O[C@@H]2O[C@H](C)C[C@H](N(C)C)[C@H]2O)[C@](C)(O)C[C@@H](C)C(=O)[C@H](C)[C@@H](O)[C@]1(C)O", "strain or isolate": "28 strains", "result": "32 µg/mL"}
{"compound": "COc1cccc2c1n([O-])c1cccc(OC)c1[n+]2=O", "strain or isolate": "5 strains", "result": "8 µg/mL"}
{"compound": "C[C@@H]1CN(c2c(F)c(N)c3c(=O)c(C(=O)O)cn(C4CC4)c3c2F)C[C@H](C)N1", "strain or isolate": "25 isolates", "result": "4 µg/mL"}
{"compound": "CC[C@H]1OC(=O)[C@H](C)[C@@H](O[C@H]2C[C@@](C)(OC)[C@@H](O)[C@H](C)O2)[C@H](C)[C@@H](O[C@@H]2O[C@H](C)C[C@H](N(C)C)[C@H]2O)[C@](C)(O)C[C@@H](C)/C(=N\\OCOCCOC)[C@H](C)[C@@H](O)[C@]1(C)O", "strain or isolate": "28 strains", "result": "16 µg/mL"}
{"compound": "NC1CCN(c2c(F)cc3c(=O)c(C(=O)O)cn(C4CC4)c3c2Cl)C1", "strain or isolate": "25 isolates", "result": ">8 µg/mL"}
{"compound": "COc1cccc2c1nc1cccc(OC)c1[n+]2[O-]", "strain or isolate": "5 strains", "result": "8 µg/mL"}
{"compound": "O=C(O)c1cn(C2CCCCC2)c2cc(NC3CCCCC3)c(F)cc2c1=O", "result": ">200 µM"}
{"compound": "C[C@@H]1CN(c2c(F)c(N)c3c(=O)c(C(=O)O)cn(C4CC4)c3c2F)C[C@H](C)N1", "strain or isolate": "20 strains", "result": "0.25 µg/mL"}
{"compound": "CC(C)(C)n1cc(C(=O)O)c(=O)c2cc([N+](=O)[O-])c(N3CCSCC3)cc21", "result": "9 µM"}
{"compound": "CC[C@H]1OC(=O)[C@H](C)[C@@H](O[C@H]2C[C@@](C)(OC)[C@@H](O)[C@H](C)O2)[C@H](C)[C@@H](O[C@@H]2O[C@H](C)C[C@H](N(C)C)[C@H]2O)[C@](C)(OC)C[C@@H](C)C(=O)[C@H](C)[C@@H](O)[C@]1(C)O", "strain or isolate": "20 strains", "result": "2 µg/mL"}
{"compound": "CCCCN(CCCC)C[C@H](O)c1cc2c(Cl)cc(Cl)cc2c2cc(C(F)(F)F)ccc12", "strain or isolate": "24 clinical isolates", "result": "8 µg/mL"}
{"compound": "CN1CCCC1CCN=c1cc2n(-c3ccc(Cl)cc3)c3ccccc3nc-2cc1Nc1ccccc1", "strain or isolate": "10 strains (HIV+)", "result": "0.4 µg/mL"}
{"compound": "CC1COc2c(N3CCN(C)CC3)c(F)cc3c(=O)c(C(=O)O)cn1c23", "strain or isolate": "18 strains", "result": "12.5 µg/mL"}
{"compound": "C[C@H]1C[C@H](N)CN1c1cc2c(cc1F)c(=O)c(C(=O)O)cn2-c1ccc(F)cc1F", "strain or isolate": "25 isolates", "result": ">8 µg/mL"}
{"compound": "CCCN(CCC)CC[C@H]1C[C@@H](C)C(=O)/C=C/C(C)=C/[C@H](COC2O[C@H](C)[C@@H](O)[C@@H](OC)[C@H]2OC)[C@@H](CC)OC(=O)C[C@@H](O)[C@H](C)[C@H]1O[C@@H]1O[C@H](C)[C@H](O)[C@H](N(C)C)[C@H]1O", "strain or isolate": "28 strains", "result": "≥64 µg/mL"}

A second listing of 4 rows from above:

compound	strain or isolate	result
CC1COc2c(N3CCN(C)CC3)c(F)cc3c(=O)c(C(=O)O)cn1c23	18 strains	12.5 µg/mL
CO[C@H]1/C=C/O[C@@]2(C)Oc3c(C)c(O)c4c(O)c(c5c(c4c3C2=O)NC2(CCN(CC(C)C)CC2)N=5)=NC(=O)/C(C)=C\C=C\[C@H](C)[C@H](O)[C@@H](C)[C@@H](O)[C@@H](C)[C@H](OC(C)=O)[C@@H]1C	211 strains	0.35 µg/mL
C[C@@H]1CN(c2c(F)c(N)c3c(=O)c(C(=O)O)cn(C4CC4)c3c2F)C[C@H](C)N1	18 strains	1.56 µg/mL
O=C(O)c1cn(C2CCCC2)c2cc(NC3CCCC3)c([N+](=O)[O-])cc2c1=O	-	81 µM

Lines come from different laboratories, so protocols vary. Blank or dashed fields: not listed here.